From patent US7132420B2, “Aspartic protease inhibitors” (The United States of America as represented by the …, priority 1999, dated 2006)

Assays:
[1] = tested on: HIV-1; experiment: HIV antiviral assay (EC50); details: read-out: HIV-1 EC50; Table 1
[2] = target: HIV-1 protease (Human immunodeficiency virus type 1 group M subtype B, UniProt P04585); experiment: HIV protease assay (Ki); details: read-out: HIV-1 Ki; Table 1
[3] = target: 84V mutant HIV-1 protease (Human immunodeficiency virus type 1 group M subtype B, UniProt P04585, I572V); experiment: HIV protease assay, 84V mutant (Ki); format: biochemical; details: read-out: 84 V Ki; Table 1
Description: This example illustrates the HIV-1 protease inhibition activity (Ki), HIV-1 antiviral data (EC50), and the toxicity against normal cells (IC50), for particular compounds of formula (I). The HIV protease assay was done according to the protocol described in Kageyama et al, Antimicrob. Agents Chemother., 37, 272 (1993). The HIV antiviral assay was done according to the protocol described in Weislow et al., J. National Cancer Inst. 81, 577 (1989).

[4] = target: 82F/84V mutant HIV-1 protease (Human immunodeficiency virus type 1 group M subtype B, UniProt P04585, I572V/V570F); details: read-out: 82 F/84 V Ki; Table 1

Compound	EC50 [1] [pM]	Ki [2] [pM]	Ki [3] [pM]	Ki [4] [pM]
CC(C)C[C@@H](C[C@H](O)[C@H](Cc1ccccc1)NC(=O)C(NC(=O)OCc1ccccn1)C(C)C)NC(=O)C(NC(=O)OCc1ccccn1)C(C)C (some centres unmarked)	92000	5	23	25
COc1ccc(S(=O)(=O)N(Cc2ccccc2)[C@H](C(=O)N[C@@H](CC(C)C)C[C@H](O)[C@H](Cc2ccccc2)NC(=O)COc2c(C)cccc2C)C(C)C)cc1	50000	4.1	–	–
Cc1cccc(C)c1OCC(=O)N[C@@H](Cc1ccccc1)[C@@H](O)C[C@H](CC(C)C)NC(=O)[C@H](C(C)C)N1CCCC1=O	400	8.3	–	–
